Pooled drug test results. Numbers come from NIAID ChemDB, via PubChem.

All rows: tests in culture; species: Cryptosporidium parvum; endpoint: EC50

Two numbers with a dash give a range or band. ECn is the concentration giving n% inhibition of infection, replication or growth. Rows are shuffled and stem from different studies. Blank or dashed fields: not listed here.

smiles,cells,strain or isolate,method,value
CCN(CC)CCSc1c2ccccc2nc2cc(N)ccc12,-,-,-,>50 µg/mL
NC[C@@H]1O[C@H](O[C@H]2[C@@H](O)[C@H](O[C@@H]3[C@@H](O)[C@H](N)C[C@H](N)[C@H]3O[C@H]3O[C@H](CO)[C@@H](O)[C@H](O)[C@H]3N)O[C@@H]2CO)[C@H](N)[C@@H](O)[C@@H]1O,MDCK,IOWA,luminescence,1184 µg/mL
COc1cc(O)c2c(O)c(C(=O)c3ccccc3)oc2c1,-,-,-,>50 µM
Cc1cc(O)c2c(c1Cl)C(=O)c1cn[nH]c1C2=O,-,-,-,>100 µM
CC[C@H]1OC(=O)[C@H](C)[C@@H](O[C@H]2C[C@@](C)(OC)[C@@H](O)[C@H](C)O2)[C@H](C)[C@@H](O[C@@H]2O[C@H](C)C[C@H](N(C)C)[C@H]2O)[C@](C)(O)C[C@@H](C)CN(C)[C@H](C)[C@@H](O)[C@]1(C)O,A549,-,-,>8 µg/mL
CCCCCCSc1c2ccccc2nc2ccccc12,-,-,-,>50 µg/mL
O=C1c2cccc(Cl)c2C(=O)c2cn[nH]c21,-,-,-,10–25 µM
CCN(CC)CCSc1c2ccccc2nc2cc(Cl)ccc12,-,-,-,10–50 µg/mL
O=C1/C(=C/c2ccc(O)cc2)Oc2cc(O)ccc21,-,-,-,25–50 µM
NC[C@@H]1O[C@H](O[C@H]2[C@@H](O)[C@H](O[C@@H]3[C@@H](O)[C@H](N)C[C@H](N)[C@H]3O[C@H]3O[C@H](CO)[C@@H](O)[C@H](O)[C@H]3N)O[C@@H]2CO)[C@H](N)[C@@H](O)[C@@H]1O,MDBK,-,antigen,<2 µg/mL
CCSc1c2ccccc2nc2cc(Cl)ccc12,-,-,-,>10 µg/mL
CO[C@H]1/C=C/O[C@@]2(C)Oc3c(C)c(O)c4c(O)c(c5c(c4c3C2=O)NC2(CCN(CC(C)C)CC2)N=5)=NC(=O)/C(C)=C\C=C\[C@H](C)[C@H](O)[C@@H](C)[C@@H](O)[C@@H](C)[C@H](OC(C)=O)[C@@H]1C,A549,-,-,>8 µg/mL
COc1ccc(/C=C2\Oc3cc(O)cc(O)c3C2=O)cc1O,-,-,-,10–25 µM
O=[N+]([O-])c1ccc(CSc2c3ccccc3nc3cc(Cl)ccc23)cc1,-,-,-,>50 µg/mL
O=C1/C(=C/c2cccc(O)c2)Oc2cc(O)ccc21,-,-,-,10–25 µM
Nc1ccc2c(Sc3ccc([N+](=O)[O-])cc3)c3ccccc3nc2c1,-,-,-,>10 µg/mL
O=C1c2cn[nH]c2C(=O)c2c(O)ccc(O)c21,-,-,-,10–25 µM
COc1cc(/C=C2\Oc3cc(O)cc(O)c3C2=O)cc(OC)c1O,-,-,-,25–50 µM
NC[C@@H]1O[C@H](O[C@H]2[C@@H](O)[C@H](O[C@@H]3[C@@H](O)[C@H](N)C[C@H](N)[C@H]3O[C@H]3O[C@H](CO)[C@@H](O)[C@H](O)[C@H]3N)O[C@@H]2CO)[C@H](N)[C@@H](O)[C@@H]1O,MDBK,-,cell count,<1000 µg/mL
COc1cc(/C=C2\Oc3cc(O)cc(O)c3C2=O)ccc1O,-,-,-,25–50 µM
CCSc1c2ccccc2nc2cc([N+](=O)[O-])ccc12,-,-,-,>10 µg/mL

3 of the rows above, restated:

smiles	cells	strain or isolate	method	value
CCN(CC)CCSc1c2ccccc2nc2cc(N)ccc12	-	-	-	>50 µg/mL
CCSc1c2ccccc2nc2cc(Cl)ccc12	-	-	-	>10 µg/mL
COc1cc(/C=C2\Oc3cc(O)cc(O)c3C2=O)cc(OC)c1O	-	-	-	25–50 µM